# Source: patent EP4831293A1, “BIOSYNTHETIC GENE CLUSTER FOR POLYENE MACROLIDE NATURAL PRODUCT MANDIMYCIN, AND NATURAL PRODUCT AND USE THEREOF” (dated 2026)
# Tests used:
# [1] = test system: Candida glabrata; assay: Drug resistance test on agar plates with 8x MIC; conditions: 8× MIC agar plates, 30°C, 2 days
# Protocol: (§1) Different Candida species and other fungi were cultured overnight in YPD broth with shaking (200 rpm, 30°C) for 16 h. A fungal suspension having a concentration of approximately 10^10 CFU/mL was prepared, and 0.1 mL aliquot of the suspension was spread onto YPD agar plates containing 8× MIC concentrations of mandimycin, amphotericin B, nystatin, or natamycin. The inoculated plates were incubated at 30°C for 2 days to identify resistant colonies. A number of colonies growing in the presence of the antifungal agents was calculated. […] In contrast, amphotericin B produced an average of 6 resistant Candida auris colonies, 5 resistant Candida albicans colonies, 12 resistant Cryptococcus neoformans colonies, 560 resistant Candida tropicalis colonies, and 5 resistant Candida parapsilosis colonies per agar plate. Nystatin produced an average of 2 resistant Candida auris colonies, 24 resistant Candida albicans colonies, 3 resistant Cryptococcus neoformans colonies, 55 resistant Candida tropicalis colonies, 2 resistant Candida parapsilosis colonies, and 23 resistant Candida glabrata colonies per agar plate. Natamycin produced an average of 13 resistant Candida auris colonies, 4 resistant Candida albicans colonies, 34 resistant Cryptococcus neoformans colonies, 40 resistant Candida tropicalis colonies, 8 resistant Candida parapsilosis colonies, and 5 resistant Candida glabrata colonies per agar plate.
# [2] = test system: Candida albicans; assay: Drug resistance test on agar plates with 8x MIC; conditions: 8× MIC agar plates, 30°C, 2 days
# Protocol: as §1
# [3] = test system: Candida auris; assay: Drug resistance test on agar plates with 8x MIC; conditions: 8× MIC agar plates, 30°C, 2 days
# Protocol: as §1
# [4] = test system: Candida tropicalis; assay: Drug resistance test on agar plates with 8x MIC; conditions: 8× MIC agar plates, 30°C, 2 days
# Protocol: as §1
# [5] = test system: Cryptococcus neoformans; assay: Drug resistance test on agar plates with 8x MIC; conditions: 8× MIC agar plates, 30°C, 2 days
# Protocol: as §1
# [6] = test system: Candida parapsilosis; assay: Drug resistance test on agar plates with 8x MIC; conditions: 8× MIC agar plates, 30°C, 2 days
# Protocol: as §1
# [7] = test system: Candida albicans BNCC 186382; assay: Mouse model of invasive candidiasis (survival); conditions: 10 mg/kg once daily for four days, monitored 20 days
# Protocol: Specific pathogen-free female ICR mice (Hangzhou Medical College, China), aged 6 weeks and weighing 23-27 g, were used. The mice were randomly housed, with six mice per cage, and were acclimated for three days prior to the experiment. To induce immunosuppression, the mice received intraperitoneal injections of cyclophosphamide (200 mg/kg) and subcutaneous injections of cortisone acetate (500 mg/kg) on Day -2 and Day +3, respectively. To prevent cross-infection, the mice received enrofloxacin in drinking water at a concentration of 50 µg/mL from Day 1 to Day 3, followed by subcutaneous injection of ceftazidime (200 µg/kg) from Day 0 to Day 9. Invasive candidiasis was induced by intravenous injection of 1 × 10^6 CFU of Candida albicans BNCC 186382. Treatment was initiated 16 h after infection, including subcutaneous injection of mandimycin (formulated in 10% DMSO and 10% Tween 80) at doses of 1 mg/kg, 5 mg/kg, 10 mg/kg, and 20 mg/kg once daily for four consecutive days, together with amphotericin B at a dose of 10 mg/kg. The mice were monitored for a total of 20 days. Survival curves were plotted using GraphPad Prism 9. When mandimycin was administered at a dose of 10 mg/kg, a survival rate of mice reached 100%.
Molecule,resistant Candida glabrata colonies per agar plate (average) [1],resistant Candida albicans colonies per agar plate (average) [2],resistant Candida auris colonies per agar plate (average) [3],resistant Candida tropicalis colonies per agar plate (average) [4],resistant Cryptococcus neoformans colonies per agar plate (average) [5],resistant Candida parapsilosis colonies per agar plate (average) [6],survival rate of mice [7]
C[C@@H]1C/C=C/C=C/C=C/C=C/[C@H](O[C@@H]2O[C@H](C)[C@@H](O)[C@H](N)[C@@H]2O)C[C@@H]2O[C@](O)(C[C@@H](O)C[C@H]3O[C@@H]3/C=C/C(=O)O1)C[C@H](O)[C@H]2C(=O)O,5 colonies per agar plate,4 colonies per agar plate,13 colonies per agar plate,40 colonies per agar plate,34 colonies per agar plate,8 colonies per agar plate,
amphotericin B,,5 colonies per agar plate,6 colonies per agar plate,560 colonies per agar plate,12 colonies per agar plate,5 colonies per agar plate,80%
nystatin,23 colonies per agar plate,24 colonies per agar plate,2 colonies per agar plate,55 colonies per agar plate,3 colonies per agar plate,2 colonies per agar plate,
